These results are taken from ChEMBL document CHEMBL1151538, “Rearrangement of unsymmetrical azetidinone disulfides to 2-(heterocyclylthiomethyl)penams, a synthetic approach to new -lactamase inhibitors” (Bioorg Med Chem Lett, 1993).

By UniProt entry, the sequences of proteins in these tests, tags left out. Residues count along the entry.
UniProt P00807, 25-281 limits assumed: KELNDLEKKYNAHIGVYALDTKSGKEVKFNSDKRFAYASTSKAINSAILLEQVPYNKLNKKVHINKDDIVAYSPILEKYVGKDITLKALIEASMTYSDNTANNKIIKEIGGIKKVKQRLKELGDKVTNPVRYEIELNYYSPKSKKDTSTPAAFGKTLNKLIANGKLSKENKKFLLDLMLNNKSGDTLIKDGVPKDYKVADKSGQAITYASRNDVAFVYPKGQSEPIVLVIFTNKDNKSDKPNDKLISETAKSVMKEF
UniProt P05364, 21-381 limits assumed: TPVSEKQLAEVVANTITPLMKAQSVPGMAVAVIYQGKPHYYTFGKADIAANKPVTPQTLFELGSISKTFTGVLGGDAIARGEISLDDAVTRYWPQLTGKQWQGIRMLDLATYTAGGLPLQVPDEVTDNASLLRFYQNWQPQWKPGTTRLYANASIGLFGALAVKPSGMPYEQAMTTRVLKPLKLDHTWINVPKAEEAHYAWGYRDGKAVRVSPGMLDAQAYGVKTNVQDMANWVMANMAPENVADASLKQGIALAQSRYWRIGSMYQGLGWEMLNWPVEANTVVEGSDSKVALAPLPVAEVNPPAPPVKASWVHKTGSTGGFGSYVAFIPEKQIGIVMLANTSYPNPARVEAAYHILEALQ
UniProt Q59514, 26-313 limits assumed: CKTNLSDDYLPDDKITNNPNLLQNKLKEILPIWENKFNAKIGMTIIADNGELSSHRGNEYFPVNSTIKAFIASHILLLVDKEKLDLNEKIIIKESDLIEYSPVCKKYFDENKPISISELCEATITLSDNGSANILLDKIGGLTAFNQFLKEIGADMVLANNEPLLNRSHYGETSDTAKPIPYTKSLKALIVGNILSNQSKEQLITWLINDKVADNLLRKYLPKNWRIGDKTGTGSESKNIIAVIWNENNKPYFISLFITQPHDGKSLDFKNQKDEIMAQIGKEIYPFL
UniProt P0AD63, 22-286 limits assumed: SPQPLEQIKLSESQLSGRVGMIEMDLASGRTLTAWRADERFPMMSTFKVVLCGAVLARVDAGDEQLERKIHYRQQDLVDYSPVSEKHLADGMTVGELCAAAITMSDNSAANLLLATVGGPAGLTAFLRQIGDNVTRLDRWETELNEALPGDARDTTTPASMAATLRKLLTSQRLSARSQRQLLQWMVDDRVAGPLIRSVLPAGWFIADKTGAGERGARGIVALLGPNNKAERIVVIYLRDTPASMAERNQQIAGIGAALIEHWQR
UniProt P13661, 26-276 limits assumed: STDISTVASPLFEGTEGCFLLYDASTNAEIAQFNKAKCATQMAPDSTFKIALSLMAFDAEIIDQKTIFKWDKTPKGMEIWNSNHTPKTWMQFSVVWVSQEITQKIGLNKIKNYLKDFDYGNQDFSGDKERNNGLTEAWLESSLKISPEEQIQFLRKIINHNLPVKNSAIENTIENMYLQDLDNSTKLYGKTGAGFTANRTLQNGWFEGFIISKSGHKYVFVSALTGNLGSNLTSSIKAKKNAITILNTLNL
UniProt P62593, 24-286 limits assumed: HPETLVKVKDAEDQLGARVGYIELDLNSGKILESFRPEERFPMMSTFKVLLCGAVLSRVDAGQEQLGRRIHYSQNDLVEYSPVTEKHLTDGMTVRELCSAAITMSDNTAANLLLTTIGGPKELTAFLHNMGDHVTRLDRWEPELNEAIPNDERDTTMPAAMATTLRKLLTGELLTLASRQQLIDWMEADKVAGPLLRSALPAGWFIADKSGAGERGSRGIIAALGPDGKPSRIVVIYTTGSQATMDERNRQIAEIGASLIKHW
UniProt P05193, 21-381 limits assumed: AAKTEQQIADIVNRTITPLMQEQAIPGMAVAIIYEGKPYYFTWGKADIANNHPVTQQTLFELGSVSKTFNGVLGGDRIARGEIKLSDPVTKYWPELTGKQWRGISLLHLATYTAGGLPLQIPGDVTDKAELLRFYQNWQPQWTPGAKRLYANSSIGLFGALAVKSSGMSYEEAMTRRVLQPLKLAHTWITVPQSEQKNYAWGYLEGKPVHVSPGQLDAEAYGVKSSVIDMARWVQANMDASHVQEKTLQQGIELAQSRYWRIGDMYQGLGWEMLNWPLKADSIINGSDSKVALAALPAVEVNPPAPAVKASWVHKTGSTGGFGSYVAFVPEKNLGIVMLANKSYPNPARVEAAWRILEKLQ

Structures are written as SMILES. pIC50: −log10 of the molar value.

The target of assay [1] is Beta-lactamase (Staphylococcus aureus, UniProt P00807). The experiment in a line: Inhibitory activity against Staphylococcus aureus CJ8 beta-lactamase enzyme.
Assay [2] deals with Beta-lactamase (Enterobacter cloacae, UniProt P05364). Kind of assay: Inhibitory activity against Enterobacter cloacae HC8 Class-I beta-lactamase enzyme type P99.
For assay [3], the target named is Beta-lactamase (Klebsiella oxytoca, UniProt Q8RT60). The experiment in a line: Inhibitory activity against Klebsiella oxytoca HC7 Class-IV K1 type beta-lactamase enzyme.
For assay [4], the target named is Beta-lactamase BRO-1 (Moraxella catarrhalis, UniProt Q59514). The experiment in a line: Inhibitory activity against Branhamella catarrhalis 89001 Class-III BRO-1 type beta-lactamase enzyme.
The target of assay [5] is Beta-lactamase SHV-1 (Escherichia coli, UniProt P0AD63). Kind of assay: Inhibitory activity against Escherichia coli HA208 Class-III SHV-1 type beta-lactamase enzyme.
Assay [6] concerns the target Beta-lactamase OXA-1 (Escherichia coli, UniProt P13661). The experiment in a line: Inhibitory activity against Escherichia coli HA209 Class-V OXA-1 type beta-lactamase enzyme.
For assay [7], the target named is Beta-lactamase TEM (Escherichia coli, UniProt P62593). The experiment in a line: Inhibitory activity against Escherichia coli HA58R Class-III TEM-1 type beta-lactamase enzyme.
Assay [8] has as its target Beta-lactamase (Citrobacter freundii, UniProt P05193). The experiment in a line: Inhibitory activity against Citrobacter freundii 87470 Class-I beta-lactamase enzyme.

Broadly, the pIC50 is the negative decadic logarithm of the IC50, by convention in mol/L. `C[C@@]1(CSC2=NCCS2)S[C@@H]2[C@H](Br)C(=O)N2[C@H]1C(=O)O`: the pIC50 is 6.90 in assay [1]; 4.49 in assay [2]; 5.60 in assay [3]; 7.09 in assay [4]; 6.30 in assay [5]; 5.80 in assay [6]. For the same molecule, the values for the pIC50 in assay [7] and in assay [8] were 7.40 and 4.30, respectively.

On to `CC1(C)S[C@@H]2[C@H](Br)C(=O)N2[C@H]1C(=O)O`, for which the negative logarithm of the IC50 (pIC50) is 7.33 in assay [1]; 5.75 in assay [2]; 6.54 in assay [3]; 7.97 in assay [4]; 7.75 in assay [5]; 6.15 in assay [6]. Besides, the pIC50 is 7.85 in assay [7] and 5.75 in assay [8].

Take `C[C@@]1(CSc2nc[nH]n2)S[C@@H]2[C@H](Br)C(=O)N2[C@H]1C(=O)O`: the pIC50 in assay [2] is 4.37; in assay [3], 5.88; in assay [4], 7.18; in assay [5], 7.58; in assay [6] it was 5.28; in assay [7], 7.68. This molecule also had a pIC50 in assay [8] of 4.98.
